Anti-infective test results gathered from many reports (values: NIAID ChemDB through PubChem).

Shared fields: whole-cell or culture tests; organism: Candida glabrata

Blank or dashed fields: not listed here. Conditions beyond the fields shown may differ between rows. Two numbers with a dash give a range or band. A number after MIC or MFC names an inhibition level or a share of isolates. ECn: concentration that inhibits the pathogen or its effect by n%.

| structure | strain | setting | method | measure | result |
|---|---|---|---|---|---|
| O=C(CCn1ccnc1)c1cccc(O)c1 | RTCC 1054 |  | broth dilution | MIC | >64 µg/mL |
| O/N=C\c1ccccc1 |  |  |  | MIC100 | 8260 µM |
| OC(Cn1cncn1)(Cn1cncn1)c1ccc(F)cc1F |  |  | agar | MIC | 50–100 µg/mL |
| C/C(=N/O)C(Cl)(Cl)Cl |  |  |  | MIC | 3220 µM |
| O=C(c1ccccc1)C(c1ccccc1)n1cnc2ccccc21 |  |  | agar | MIC90 | 64 µg/mL |
| CO[C@@]12OC(=O)C(C)=C1C1=C3[C@](C)([C@@H]4C[C@@H]4[C@@]3(O)C[C@@H]3[C@]14OC(=O)C1=C4C[C@H]4[C@](O)(COC(=O)/C(C)=C/COC(=O)CCC(=O)OC1)[C@H]1C[C@H]1[C@]34C)[C@H]2O | ATCC 90030 |  | broth dilution | MIC | >256 µg/mL |
| c1ccc(C(c2ccccc2)n2cncn2)cc1 |  |  | broth dilution | MFC | 256 µg/mL |
| O=C(CCn1ccnc1)c1cccc(C(O)c2ccc(Cl)cc2)c1 | RTCC 1054 |  | broth dilution | MIC | 4 µg/mL |
| C[C@@H]1CC(=O)N(CCCc2ccccc2)C1=O | CCC 115-2000 |  | broth dilution / turbidity | MIC | 62.5 µg/mL |
| CC1=C2C3=C4[C@@](C)(C(=O)[C@]2(O)OC1=O)[C@@H]1C[C@@H]1[C@@]4(O)C[C@@H]1[C@]32OC(=O)C3=C2C[C@H]2[C@](O)(COC(=O)/C(C)=C/COC(=O)CCC(=O)OC3)[C@H]3C[C@H]3[C@]12C | ATCC 90030 |  | broth dilution | MIC | >256 µg/mL |
| Clc1ccc(C(c2ccccc2)n2cncn2)cc1 |  |  | agar | MIC90 | 0.5 µg/mL |
| O=C(CCn1ccnc1)c1ccc(Br)cc1 | RTCC 1054 |  | broth dilution | MIC | >64 µg/mL |
| O/N=C\c1ccccc1O |  |  |  | MIC | 1800 µM |
| Cc1ccc(-c2c3c(N)c4c(nc3nc3c2c(C)nn3-c2ccccc2)CCCC4)cc1 | CCC 115 |  | broth dilution / absorbance | MIC50 | >250 µg/mL |
| O=[N+]([O-])c1ccc(/C=N\O)cc1 |  |  |  | MIC | 3010 µM |
| OC(CCn1ccnc1)c1ccc(Br)cc1 | RTCC 1054 |  | broth dilution | MIC | >64 µg/mL |
| CC(C)C[C@H](N)C(=O)O | G 212 |  | broth dilution | MIC100 | >72000 µg/mL |
| O=[N+]([O-])c1cccc(/C=N\O)c1 |  |  |  | MIC100 | 3010 µM |
| CCC(C)CC(C)CCCCCCCCC(=O)N[C@H]1C[C@@H](O)[C@H](NCCN)NC(=O)[C@@H]2[C@@H](O)CCN2C(=O)[C@H]([C@H](O)CCN)NC(=O)[C@H]([C@H](O)[C@@H](O)c2ccc(O)cc2)NC(=O)[C@@H]2C[C@@H](O)CN2C(=O)[C@H]([C@@H](C)O)NC1=O |  |  | broth dilution | MIC90 | 2 µg/mL |
| C[C@@H]1C(=O)N(CCc2ccccc2)C(=O)[C@@H]1C | CCC 115-2000 |  | broth dilution / turbidity | MIC | 62.5 µg/mL |
| O/N=C(\COc1ccccc1)c1ccccc1 | ATCC 90030 | 24 h | broth dilution | MIC | >125 µg/mL |
| Cc1cccc(C)c1N1C(=O)C=CC1=O | DSM 11226 |  | broth dilution | MIC80 | 4 µg/mL |
| O=C(COc1ccc(F)cc1)c1ccccc1 | ATCC 90030 | 48 h | broth dilution | MIC | >125 µg/mL |
| O=C(CCn1ccnc1)c1cccc2ccccc12 | RTCC 1040 |  | broth dilution | MIC | 64 µg/mL |
| C[C@@H]1CC(=O)N(CCCCc2ccccc2)C1=O | CCC 115-2000 |  | broth dilution / turbidity | MIC | 125 µg/mL |
| CC(C)CC(O)C(=O)O | CCUG 32725 |  | broth dilution | EC50 | 18000 µg/mL |
| CCN1C(=O)C=CC1=O | DSM 11226 |  | broth dilution | MIC80 | 4 µg/mL |
| COC(=O)/C(C)=C1\C(=O)[C@H](O)[C@]2(C)C3=C(C[C@@H]4[C@]5(OC(=O)C6=C5C[C@H]5[C@](O)(COC(=O)/C(C)=C/COC(=O)CCC(=O)OC6)[C@H]6C[C@H]6[C@]45C)[C@H]31)[C@H]1C[C@H]12 | ATCC 90030 |  | broth dilution | MIC | >256 µg/mL |
| COc1ccc(OCC(=O)c2ccccc2)cc1 | ATCC 90030 | 48 h | broth dilution | MIC | >125 µg/mL |
| O=P(O)(O)OP(=O)(O)OP(=O)(O)O | MC425 |  | broth dilution | MIC | 390 µg/mL |
| Cc1ccc(-c2c3c(N)c4c(nc3nc3c2c(C)nn3-c2ccccc2)CCCCC4)cc1 | CCC 115 |  | broth dilution / absorbance | MIC50 | 250 µg/mL |
| C[C@@H](c1ncncc1F)[C@](O)(Cn1cncn1)c1ccc(F)cc1F | 8658 |  | broth dilution | MIC | 0.03 µg/mL |
| C[C@H]1[C@H](O)[C@@H](C)/C=C/C=C/C=C/C=C/C=C/C=C/C=C/[C@H](O[C@@H]2O[C@H](C)[C@@H](O)[C@H](N)[C@@H]2O)C[C@@H]2O[C@](O)(C[C@@H](O)C[C@@H](O)CC[C@H](O)[C@@H](O)C[C@@H](O)CC(=O)O[C@H]1C)C[C@H](O)[C@H]2C(=O)O | MTCC 3019 |  | visual reading | MFC | 2 µg/mL |
| c1ccc(C(c2ccccc2)n2nnc3ccccc32)cc1 |  |  | agar | MIC90 | >256 µg/mL |
| Cc1ccc(-c2c3c(N)c4c(nc3nc3c2c(C)nn3-c2ccccc2)CCC4)cc1 | CCC 115 |  | broth dilution / absorbance | MIC100 | >250 µg/mL |
| O/N=C(/COc1cccc(F)c1)c1ccccc1 | ATCC 90030 | 24 h | broth dilution | MIC | >125 µg/mL |
| C=CCc1ccc(OC)c(OC)c1 | 2993 |  | turbidity | MIC90 | 350 µg/mL |
| C[C@@H](c1ncncc1F)[C@](O)(Cn1cncn1)c1ccc(F)cc1F | 1 |  | broth dilution | MIC | 0.5 µg/mL |
| CCCCCCCCCCCCCCCC(=O)NC(CCCCN)C(=O)NC(CCCCN)C(N)=O | 4883 |  | broth dilution | MIC | 2 µg/mL |
| Cc1coc2c1C(=O)[C@@H]1[C@@](C)(C2)[C@H](O)CC[C@@]1(C)O | ATCC 90030 |  | broth dilution | MIC | >256 µg/mL |
| O=c1c(OC2CCCC2)c(N2CCN(S(=O)(=O)NCc3ccccc3)CC2)cnn1-c1cccc(Cl)c1 | C624 |  | broth dilution | MIC | 0.1 µg/mL |
| O/N=C(/COc1ccc(F)cc1)c1ccccc1 | ATCC 90030 | 48 h | broth dilution | MIC | 31.25 µg/mL |
| CCC(C)CC(C)CCCCCCCCC(=O)N[C@H]1C[C@@H](O)[C@H](NCCN)NC(=O)[C@@H]2[C@@H](O)CCN2C(=O)[C@H]([C@H](O)CCN)NC(=O)[C@H]([C@H](O)[C@@H](O)c2ccc(O)cc2)NC(=O)[C@@H]2C[C@@H](O)CN2C(=O)[C@H]([C@@H](C)O)NC1=O | C110 |  | broth dilution | MIC | 0.06 µg/mL |
| COc1cc(OC/C(=N/O)c2ccccc2)cc(OC)c1OC | ATCC 90030 | 24 h | broth dilution | MIC | >125 µg/mL |
| Cc1ccc(C(O)c2cccc(C(O)CCn3ccnc3)c2)cc1 | RTCC 1040 |  | broth dilution | MIC | >64 µg/mL |
| CC(C)(C)c1ccccc1N1C(=O)C=CC1=O | DSM 11226 |  | broth dilution | MIC80 | 2 µg/mL |
| O=C(CCn1ccnc1)c1cccc(C(O)c2ccc(Br)cc2)c1 | RTCC 1040 |  | broth dilution | MIC | 64 µg/mL |
| C[C@H]1[C@H](O)[C@@H](C)/C=C/C=C/C=C/C=C/C=C/C=C/C=C/[C@H](O[C@@H]2O[C@H](C)[C@@H](O)[C@H](N)[C@@H]2O)C[C@@H]2O[C@](O)(C[C@@H](O)C[C@@H](O)CC[C@H](O)[C@@H](O)C[C@@H](O)CC(=O)O[C@H]1C)C[C@H](O)[C@H]2C(=O)O | CCC 115 |  | broth dilution / absorbance | MIC100 | 0.39 µg/mL |
| COc1ccc(N2C(=O)C[C@@H](C)C2=O)cc1 | CCC 115-2000 |  | broth dilution / turbidity | MIC | 62.5 µg/mL |
| O/N=C\c1ccc(O)cc1 |  |  | broth dilution | MFC | >7290 µM |
| O=C1C=CC(=O)N1c1ccccc1 | DSM 11226 |  | broth dilution | MIC80 | 2 µg/mL |

6 of the rows above, restated:

structure	strain	setting	method	measure	result
COc1ccc(OCC(=O)c2ccccc2)cc1	ATCC 90030	48 h	broth dilution	MIC	>125 µg/mL
O=c1c(OC2CCCC2)c(N2CCN(S(=O)(=O)NCc3ccccc3)CC2)cnn1-c1cccc(Cl)c1	C624		broth dilution	MIC	0.1 µg/mL
O/N=C\c1ccc(O)cc1			broth dilution	MFC	>7290 µM
C[C@H]1[C@H](O)[C@@H](C)/C=C/C=C/C=C/C=C/C=C/C=C/C=C/[C@H](O[C@@H]2O[C@H](C)[C@@H](O)[C@H](N)[C@@H]2O)C[C@@H]2O[C@](O)(C[C@@H](O)C[C@@H](O)CC[C@H](O)[C@@H](O)C[C@@H](O)CC(=O)O[C@H]1C)C[C@H](O)[C@H]2C(=O)O	MTCC 3019		visual reading	MFC	2 µg/mL
C[C@@H](c1ncncc1F)[C@](O)(Cn1cncn1)c1ccc(F)cc1F	8658		broth dilution	MIC	0.03 µg/mL
CC(C)CC(O)C(=O)O	CCUG 32725		broth dilution	EC50	18000 µg/mL